A mixed list of measured activities; the numbers were collected in NIAID ChemDB.

All rows: tests in culture; agent: Mycobacterium tuberculosis

A number after MIC or MFC names an inhibition level or a share of isolates. MIC bound: limit read from a one-dose screen. Inhibition is in % at the dose shown (toxicity tests: loss of growth or viability). a–b is a range or a potency band. Rows are shuffled and stem from different studies. Blank or dashed fields: not listed here. ECn is the concentration giving n% inhibition of infection, replication or growth.

smiles	dose	method	read-out	mutations	strain or isolate	result
CN=C(NN(C)C)c1ccc(NC(=O)c2ccc(C(=O)Nc3ccc(C(=NC)NN(C)C)cc3)cc2)cc1		BACTEC	MIC bound		H37Rv	≤12.5 µg/mL
CCCCCCCCCCCCS(=O)(=O)C[C@@H]1O[C@H](CO)[C@@H](O)[C@@H]1O			EC50		H37Rv	>6.25 µg/mL
CC(=O)c1ccc(N2CCN(C(=O)CC(C)C)CC2)cc1		turbidity	MIC50		Wild type without biotin	>50 µM
CC(=O)Nc1cccc(Nc2nccc(Nc3ccc(C(=O)O)cc3CN(C)C3CCCCC3)n2)c1		resazurin	MIC		H37Rv	16 µg/mL
O=C(NC1C[C@@H]2CN(c3ccc(N4C[C@H](Cn5ccnn5)OC4=O)cc3F)C[C@@H]2C1)c1ccc([N+](=O)[O-])cc1		broth dilution / resazurin	MIC		H37Rv	1 µg/mL
O=C(NCN1CCOCC1)c1cnccn1			MIC		PZA-resistant	100 µg/mL
CC1CNC(c2ccc(NC(=O)Nc3cc(C(=O)Nc4ccc(C5=NC(C)CN5)cc4)ccc3C(=O)Nc3ccc(C4=NC(C)CN4)cc3)cc2)=N1	6.25 µg/mL	BACTEC	inhibition		H37Rv	96%
CCCCCCCCO[C@H]1O[C@H](CO[C@H]2O[C@H](CO)[C@@H](N=[N+]=[N-])[C@@H]2O)[C@@H](O)[C@@H]1O	6.25 µg/mL		inhibition		H37Rv	13%
CCN(CC)CNC(=O)c1cnc(N(CC)CC)cn1			MIC		ATCC 35828	16 µg/mL
Cc1cc(NS(=O)(=O)c2ccc(Nc3c4ccccc4nc4c(C(=O)N5CCN(CCO)CC5)cccc34)cc2)no1		BACTEC	MIC bound		H37Rv	>12.5 µg/mL
CO/N=C(\C(=O)N[C@@H]1C(=O)N2C(C(=O)O)=C(COC(C)=O)CS[C@H]12)c1csc(N)n1		BACTEC	EC50		12 strains	<100 µg/mL
Cc1cccc(NCC(=O)NN)c1C		BACTEC	MIC bound		H37Rv	>12.5 µg/mL
C[C@H]1COc2c(N3CCN(C)CC3)c(F)cc3c(=O)c(C(=O)O)cn1c23			MIC		2923-5	0.5 µg/mL
COc1cc(C2SC(N)=Nc3c2c(C)nn3C(=O)Cc2ccccc2)cc(OC)c1OC	12.5 µg/mL	BACTEC	inhibition		H37Rv	13%
Cc1ccn2nc(C)c(C(=O)NCc3ccc(-c4ccc(OC(F)(F)F)cc4)nc3)c2c1		resazurin	MIC	gyrB fluoroquinolone-resistant	FQ-R1	0.04 µg/mL
Cn1c(=O)c2c(nc(Nc3ccc(Cl)cc3)n3c(=O)n(-c4ccccc4)c(=O)n23)n(C)c1=O		BACTEC	MIC bound		H37Rv	>12.5 µg/mL
O=C(O)C1=C(CSc2nnnn2CS(=O)(=O)O)CS[C@@H]2[C@H](NC(=O)C(O)c3ccccc3)C(=O)N12		BACTEC	EC50		8 strains	>100 µg/mL
Cc1nc(NC(=S)NC(=O)c2ccc(Cl)c(Cl)c2)sc1C(=O)C=Cc1ccccc1[N+](=O)[O-]		resazurin	MIC bound		H37Rv	>6.25 µg/mL
NCc1ccccc1CC(=O)N[C@@H]1C(=O)N2C(C(=O)O)=C(CSc3nnnn3CC(=O)O)CS[C@H]12			MIC		16 strains	200–400 µg/mL
CN1CCN(CNC(=O)c2cnccn2)CC1			MIC		ATCC 35822	100 µg/mL
[N-]=[N+]=[N-].[Na+]			MIC		H37Rv	20.32 µg/mL
C1CCNCC1.S=C(S)N1CCCCC1			MIC		ETA-R	1.6 µg/mL
CCCCCCCCO[C@H]1O[C@H](CO[C@H]2O[C@H](CO)[C@@H](OC)[C@@H]2O)[C@@H](O)[C@@H]1O			EC50		H37Rv	>6.25 µg/mL
NNC(=O)CNC(c1ccccc1)(c1ccccc1)c1ccccc1		BACTEC	MIC bound		H37Rv	>12.5 µg/mL
CO[C@H]1/C=C/O[C@@]2(C)Oc3c(C)c(O)c4c(O)c(c(/C=N/N5CCN(C)CC5)c(O)c4c3C2=O)NC(=O)/C(C)=C\C=C\[C@H](C)[C@H](O)[C@@H](C)[C@@H](O)[C@@H](C)[C@H](OC(C)=O)[C@@H]1C			MIC		H37Rv	0.026 µg/mL
CC(=O)c1ccc(-c2cn(Cc3cccc(Cl)c3)nn2)s1		turbidity	MIC50		BioA underexpression strain	>50 µM
O=P1(C(Cl)(Cl)Cl)OCCCCO1	12.5 µg/mL	BACTEC	inhibition		H37Rv	4%
O=C(NNc1nc(Nc2ccc([N+](=O)[O-])cc2)nc(Nc2ccccn2)n1)c1ccncc1	0.1211 µM	BACTEC / radiometric	inhibition		H37Rv	69%
CCCCCCCCP(=O)([O-])C[C@@H]1O[C@H](CO)[C@@H](O)[C@@H]1O			EC50		H37Rv	>6.25 µg/mL
CCN1CCc2c(sc(NC(=O)c3c(F)c(F)c(F)c(F)c3F)c2C(=O)NC)C1		low oxygen	MIC			50 µM
CCCCCCCCO[C@H]1O[C@H](CO[C@H]2O[C@H](CO)[C@@H](N)[C@@H]2O)[C@@H](O)[C@@H]1O	6.25 µg/mL		inhibition		H37Rv	4%
CN1Cc2cc(N3CCN(C(=O)c4cccc(Cl)c4)CC3)ccc2C1=O		turbidity	MIC90		BioA overexpression strain	>50 µM
CC1(C)CC(=O)c2cc(C3OCC(O)C3O)[nH]c2C1	12.5 µg/mL	BACTEC	inhibition		H37Rv	22%
O=c1oc2ccccc2c(O)c1C1=CC(c2ccccc2O)Sc2ccccc2N1		resazurin	MIC		H37Rv	<6.25 µg/mL
NNC(=O)c1ccncc1		resazurin	MIC	katG mutant isoniazid resistant	INH-R1	>27 µg/mL
CCOC(=O)c1c(NC(=O)c2c(F)c(F)c(F)c(F)c2F)sc2c1CCOC2		turbidity	MIC		ATCC35838	0.23 µM
COC(=O)c1cc(NC(=O)OCc2ccccc2)nn1C	6.25 µg/mL	resazurin	inhibition		H37Rv	33%
C/C=C/c1ccc2oc(-c3ccc(O)c(OC)c3)c(C)c2c1		resazurin / absorbance	MIC		Clinical isolate 13 638	3.9 µg/mL
O=C(NNc1nc(Nc2ccccn2)nc(Nc2ccc(Cl)cc2Cl)n1)c1ccncc1	0.0614 µM	BACTEC / radiometric	inhibition		H37Rv	92%
O=C1c2ccccc2C(=O)c2c1ccc1c2[nH]c2cc(Cl)c(Cl)cc21		resazurin	MIC bound			>6.25 µg/mL
CN(CNC(=O)c1cnccn1)Cc1ccccc1			MIC		ATCC 35828	100 µg/mL
CC(=O)NC[C@H]1CN(c2ccc(N3C[C@H]4CC(NC(=O)Nc5ccccc5)C[C@H]4C3)c(F)c2)C(=O)O1		broth dilution / resazurin	MIC		H37Rv	2 µg/mL
CC(=O)c1ccc(N2CCN(C(=O)c3cncc(Cl)c3)CC2)cc1		turbidity	MIC50		Wild type without biotin	>50 µM
CCCCCCCCCCCCCCCOCCCCCCCCCCS(=O)(=O)C[C@@H]1O[C@H](CO)[C@@H](O)[C@@H]1O			EC50		H37Rv	>6.25 µg/mL
CCn1cc(C(=O)O)c(=O)c2cc(F)c(N3CCNCC3)nc21			MIC		H37Rv	5 µg/mL
CC(=O)NC[C@H]1CN(c2ccc(N3C[C@H]4CC(NC(=O)c5ccc([N+](=O)[O-])cc5)C[C@H]4C3)c(F)c2)C(=O)O1		broth dilution / resazurin	MIC		H37Rv	0.5 µg/mL
C[C@@H]1CN(c2c(F)c(N)c3c(=O)c(C(=O)O)cn(C4CC4)c3c2F)C[C@H](C)N1			MIC		H37Rv	0.125 µg/mL
CCCCCCCCCCP(=O)([O-])C[C@@H]1O[C@H](CO)[C@@H](O)[C@@H]1O	6.25 µg/mL		inhibition		H37Rv	0%
CC(=O)OCC1=C(C(=O)O)N2C(=O)[C@@H](NC(=O)CSc3ccncc3)[C@H]2SC1	100 µg/mL	BACTEC	inhibition		8 strains	100%
N[C@@H]1CONC1=O			MIC		RM22	30 µg/mL
NC1C[C@@H]2CN(c3ccc(N4C[C@H](Cn5ccnn5)OC4=O)cc3F)C[C@@H]2C1		broth dilution / resazurin	MIC		H37Rv	2 µg/mL
O=c1oc2ccccc2c(O)c1C1=CC(c2ccccc2Cl)Sc2ccccc2N1		resazurin	MIC		H37Rv	<6.25 µg/mL
CCN1CCc2c(sc(NC(=O)c3c(F)c(F)c(F)c(F)c3F)c2C(N)=O)C1		resazurin	MIC		H37Rv	3.5 µM
CO/N=C(\C(=O)N[C@@H]1C(=O)N2C(C(=O)O)=C(COC(C)=O)CS[C@H]12)c1csc(N)n1			MIC		16 strains	200–1600 µg/mL
COC(=O)C1c2cc3c(c(O)c2C(O)CC1(C)O)C(=O)c1c(O)cc2c(c1C3=O)OC1OC2(C)C(O)C(N(C)C)C1O		BACTEC	MIC bound		H37Rv	>12.8 µg/mL
CCCCCCCCO[C@H]1O[C@H](CO)[C@@H](O[C@H]2O[C@H](CO)[C@@H](N=[N+]=[N-])[C@@H]2O)[C@@H]1O			EC50		H37Rv	>6.25 µg/mL
CCNC(=O)c1c(NC(=O)c2c(F)c(F)c(F)c(F)c2F)sc2c1CCN(CC)C2		turbidity	EC50	rpoB S522L mutant	H37Rv	3.3 µM
O=C(NNc1nc(Nc2ccccc2)nc(Nc2ccccn2)n1)c1ccncc1	0.711 µM	BACTEC / radiometric	inhibition		H37Rv	71%
NNC(=O)c1ccncc1			MIC		PR326	0.08 µg/mL
CC(=O)c1ccc(N2CCN(C(=O)c3ccc(Cl)c(Cl)c3)CC2)cc1		turbidity	MIC90		BioA overexpression strain	>50 µM
CCOC(=O)c1c(NC(=O)c2c(F)c(F)c(F)c(F)c2F)sc2c1CCNC2=O		turbidity	MIC	rpoB S522L mutant	H37Rv	1.5 µM
O=C(O)c1nc(N=Nc2ccccc2)[nH]c1C(=O)O	6.25 µg/mL	resazurin	inhibition		H37Rv	-30%
CO[C@H]1/C=C/O[C@@]2(C)Oc3c(C)c(O)c4c(O)c(c5c(c4c3C2=O)NC2(CCN(CC(C)C)CC2)N=5)=NC(=O)/C(C)=C\C=C\[C@H](C)[C@H](O)[C@@H](C)[C@@H](O)[C@@H](C)[C@H](OC(C)=O)[C@@H]1C			MIC		H37Rv	≤0.125 µg/mL
O=C(O)c1cn(-c2ccc(F)cc2)c2cc(N3CCNCC3)c(F)cc2c1=O	100 µg/mL	BACTEC	inhibition		12 strains	100%
CC1=C2C(=CO[C@H](C)[C@H]2C)C(=O)C(C(=O)O)=C1O	10 µg/mL		inhibition		49	40%
Cc1ccc2oc(=O)c(C3=Nc4ccccc4NC(c4ccc(O)cc4)C3)c(O)c2c1		resazurin	MIC		H37Rv	>6.25 µg/mL
CC(=O)N1C(=O)CC23c4cccc([N+](=O)[O-])c4C(=O)N2CCCN13	12.8 µg/mL	BACTEC	inhibition		H37Rv	-9%
CC1COc2c(N3CCN(C)CC3)c(F)cc3c(=O)c(C(=O)O)cn1c23			MIC		CIPT 140010072	<1 µg/mL
C/C=C/c1ccc2c(c1)[C@@H](C)[C@H](c1ccc(OC)cc1)O2		resazurin / absorbance	MIC		Clinical isolate 13 638	7.8 µg/mL
N#Cc1c(NC(=O)c2c(F)c(F)c(F)c(F)c2F)sc2c1CCOC2		turbidity	EC90	gyrA mutant (D94N)	H37Rv	15 µM
O=C(NNc1nc(Nc2ccccn2)nc(Nc2c(Cl)cccc2Cl)n1)c1ccncc1	0.0311 µM	BACTEC / radiometric	inhibition		H37Rv	91%
CC(C)CCCC(C)CCS(=O)(=O)C[C@@H]1O[C@H](CO)[C@@H](O)[C@@H]1O			EC50		H37Rv	>6.25 µg/mL
NC(=O)C1=NNc2ccccc2C(=O)N1c1ccccc1		BACTEC	MIC bound		H37Rv	>12.5 µg/mL
NC[C@H]1O[C@H](O[C@H]2[C@H](O)[C@@H](O[C@H]3O[C@H](CO)[C@@H](O)[C@H](N)[C@H]3O)[C@H](N)C[C@@H]2N)[C@H](O)[C@@H](O)[C@@H]1O			MIC		RM22	96 µg/mL
COc1cccc(C2C=C(c3c(O)c4ccccc4oc3=O)Nc3ccccc3S2)c1		resazurin	MIC		H37Rv	<6.25 µg/mL
O=c1c2ccccc2nc2n1OCC2	12.5 µg/mL	BACTEC	inhibition		H37Rv	7%
CCCCNC(=O)c1c(N)sc2c1CCN(CC)C2		resazurin	EC50		H37Rv	>100 µg/mL
Nc1ccn([C@H]2C[C@H](N)[C@@H](CO)O2)c(=O)n1		BACTEC	MIC bound		H37Rv	>12.5 µg/mL
O=C1CCc2cc(N3CCN(C(=O)c4cccc(Cl)c4)CC3)ccc21		turbidity	MIC90		BioA underexpression strain	0.9 µM
CC(C)CC1N=C(NN=C(CCl)CCl)SP1(=O)NNc1ncccn1	12.5 µg/mL	BACTEC	inhibition		H37Rv	0%
O=C(NNc1nc(Nc2ccccn2)nc(Nc2ccccc2Cl)n1)c1ccncc1	0.065 µM	BACTEC / radiometric	inhibition		H37Rv	80%

7 of the rows above, restated:

| smiles | dose | method | read-out | mutations | strain or isolate | result |
|---|---|---|---|---|---|---|
| CO/N=C(\C(=O)N[C@@H]1C(=O)N2C(C(=O)O)=C(COC(C)=O)CS[C@H]12)c1csc(N)n1 |  |  | MIC |  | 16 strains | 200–1600 µg/mL |
| O=C(O)c1nc(N=Nc2ccccc2)[nH]c1C(=O)O | 6.25 µg/mL | resazurin | inhibition |  | H37Rv | -30% |
| O=C(NNc1nc(Nc2ccccn2)nc(Nc2ccc(Cl)cc2Cl)n1)c1ccncc1 | 0.0614 µM | BACTEC / radiometric | inhibition |  | H37Rv | 92% |
| COC(=O)c1cc(NC(=O)OCc2ccccc2)nn1C | 6.25 µg/mL | resazurin | inhibition |  | H37Rv | 33% |
| O=C(O)C1=C(CSc2nnnn2CS(=O)(=O)O)CS[C@@H]2[C@H](NC(=O)C(O)c3ccccc3)C(=O)N12 |  | BACTEC | EC50 |  | 8 strains | >100 µg/mL |
| O=C(NCN1CCOCC1)c1cnccn1 |  |  | MIC |  | PZA-resistant | 100 µg/mL |
| Cc1ccn2nc(C)c(C(=O)NCc3ccc(-c4ccc(OC(F)(F)F)cc4)nc3)c2c1 |  | resazurin | MIC | gyrB fluoroquinolone-resistant | FQ-R1 | 0.04 µg/mL |